Laboratory results from patent US9295730B2, “Conjugated molecules comprising a peptide derived from the CD4 receptor coupled to a polyanion for the treatment of AIDS” (Institut Pasteur, priority 2008, dated 2016).
Where two headings read alike, the source gives them in different places.

Assays:
[1] = system: X4-tropic HIV-1-LAI; experiment: Antiviral assay, PHA-P-activated PBMC infected with HIV-1-LAI, RT activity in supernatants; format: cell-based; conditions: for EC50: read-out: ED50 (the source's name)
[2] = biological target: T1, gp120 MN/HS interaction (Human immunodeficiency virus type 1 group M subtype B, UniProt P05877); experiment: Biacore inhibition of gp120 MN binding to HS surface; parameters: species or system HIV; conditions: gp120 MN and inhibitors at 40 nM
T1 construct: of mCD4-HS12 for MN and YU2 gp120
Method: FIG. 5: Diagram representing the binding of gp120 (MN) to HS.
(§1) Two different gp120 were used, originating from a type X4 isolate (gp120 MN) and a type R5 isolate (gp120 YU2). The capacity of different molecules to inhibit gp120 interactions with various receptors or co-receptors is measured by surface plasmonic resonance (Biacore). To do this, three compounds are immobilized on the surface of a biosensor (Sensorchip CM 4 Biacore) in accordance with the described procedure (Vives et al. J. Biol. Chem. 279, 54327-54333, 2005). These are CD4, HS (or heparin) and a monoclonal antibody (mAb 17b). This antibody recognizes the epitope induced by CD4 and mimics co-receptor CCR5 or CXCR4. These three surfaces represent the three main molecules on the cell surface recognized by gp120 (CD4, co-receptors and HS).
(§2) In the set of experiments described below, gp120 (light lines on FIGS. 4 to 6) alone or pre-incubated with the compound to be tested (heavy lines on FIGS. 4 to 6) is injected onto these surfaces, and the interaction signal is measured as a function of time for five minutes.

[3] = system: gp120/sCD4 interaction; experiment: Biacore gp120 binding to sCD4 surface (FIG. 2); conditions: FIG. 2 middle
Method: Affinity of synthesized miniCD4 for gp120 was evaluated by Biacore.

[4] = biological target: gp120 YU2/mAb 17b interaction (Human immunodeficiency virus type 1 group M subtype B, UniProt P35961); experiment: Biacore gp120 YU2 binding to mAb 17b surface; parameters: species or system HIV; conditions: gp120 YU2 and inhibitors at 40 nM; FIG. 6
Method: (§3) FIG. 6: Diagram representing the binding of gp120 (YU2 or MN) to mAb 17b.
(§4) FIG. 7: Diagram representing the binding of gp120 MN (top) or YU2 (bottom) to mAb 17b.
as §1, §2
(§5) The quantity of gp120 bound to the antibody is measured at the end of the injection.

[5] = biological target: gp120 MN/mAb 17b interaction (Human immunodeficiency virus type 1 group M subtype B, UniProt P05877); experiment: Biacore gp120 MN binding to mAb 17b surface; parameters: species or system HIV; conditions: gp120 MN and inhibitors at 40 nM; FIG. 6
Method: as §3, §4, §1, §2, §5

[6] = system: R5-tropic HIV-1/Ba-L; experiment: Antiviral assay, PHA-P-activated PBMC infected with HIV-1/Ba-L, RT activity in supernatants; format: cell-based; conditions: for EC50: read-out: ED50 (the source's name)
[7] = system: gp120/mAb 17b interaction; experiment: Biacore gp120 binding to mAb 17b surface, gp120 isolate not named (FIG. 2, FIG. 8); conditions: FIG. 2 bottom; mCD4 in complex with gp120
Method: FIG. 8: Diagram representing the binding of gp120 to mAb 17b.
In the following experiment, 40 nM of gp120 was co-incubated with 80 nM of mCD4 and 80 nM of the various molecules mentioned above, or 80 nM of corresponding covalent conjugates. The interaction with 17b is measured. T represents measurement of gp120 binding to mCD4 alone.

[8] = system: uninfected PHA-P-activated PBMC; experiment: Cytotoxicity, MTT assay on day 7; format: cell-based; conditions: Table 7
Method: (§6) In parallel, cytotoxicity of the samples was evaluated in uninfected PHA-P-activated PBMC by a methyltetrazolium salt (MTT) assay on day 7. Experiments were performed in triplicate and 50, 70 and 90% effective doses and cytotoxic doses were calculated using SoftMaxPro software.

[9] = Cytotoxicity, MTT assay on day 7; format: cell-based; conditions: human, uninfected PHA-P-activated PBMC, Table 7, read-out: Cytotoxicity CT50
Method: as §6

[10] = Table 6, LAI (X4), 100 TCID50, day 7, RT activity, ±S.D.
[11] = Table 6, /Ba-L (R5), 100 TCID50, day 7, RT activity, ±S.D.

CC(C)C[C@@H]1NC(=O)CNC(=O)[C@H](CC(C)C)NC(=O)[C@H](CO)NC(=O)[C@H](CO)NC(=O)[C@@H]2CSSC[C@@H](C(=O)N[C@H](C(N)=O)C(C)C)NC(=O)[C@H](C)NC(=O)[C@@H]3CSSC[C@H](NC(=O)[C@H](CCCCN)NC(=O)[C@H](Cc4c[nH]cn4)NC(=O)[C@H](CC(C)C)NC(=O)[C@H](CC(N)=O)NC(=O)CCSSC[C@H](NC(=O)[C@H](CCCNC(=N)N)NC(=O)CNC(=O)[C@H](CC(C)C)NC1=O)C(=O)N[C@@H](C)C(=O)NCC(=O)N[C@@H](CO)C(=O)N[C@@H](Cc1ccc(-c4ccccc4)cc1)C(=O)N3)C(=O)N[C@@H](CCC(N)=O)C(=O)N[C@@H](CC(C)C)C(=O)N[C@@H](CCCNC(=N)N)C(=O)N2 [mCD4]
ED70 [1, 10]: 377 ± 169 nM | ED90 [1, 10]: 560 ± 222 nM | EC50 [1, 10]: 244 ± 18 nM | ED70 ([1]; Table 7, VIH-1-LAI): >1000 nM | ED90 ([1]; Table 7, VIH-1-LAI): >1000 nM | EC50 ([1]; Table 7, VIH-1-LAI): 387 nM | inhibition of gp120/HS interaction [2]: no effect | gp120 binding to sCD4 surface [3]: inhibited by nM concentration of mCD4 | effect on gp120 binding to mAb 17b [4]: greatly enhances this reaction | effect on gp120 binding to mAb 17b [5]: greatly enhances this reaction | ED70 [6, 11]: >500 nM | ED90 [6, 11]: >500 nM | EC50 [6, 11]: > 500 nM | ED70 ([6]; Table 7, VIH-1/Ba-L): >1000 nM | ED90 ([6]; Table 7, VIH-1/Ba-L): >1000 nM | EC50 ([6]; Table 7, VIH-1/Ba-L): > 1000 nM | gp120 binding to mAb 17b surface [7]: promotes gp120 binding to mAb 17b surface | Cytotoxicity CT70 [8]: >1000 nM | Cytotoxicity CT90 [8]: >1000 nM | CC50 at 168 h [9]: > 1000 nM
